Test system: Vero cells
Experiment: Cytotoxicity against Vero cells (Cell Titer-Glo)
Settings: for SI: ratio of the CC50/TB-MIC, Tables P1-P3; for SI (CC50/MIC): Tables 1-4 and text

Row | SMILES | SI | SI (CC50/MIC)
1 | C[C@@H](Nc1n[n+]([O-])c2ccccc2[n+]1[O-])C1CCCCC1 (racemic) [SRI-012261] | 7.1 | –
2 | Cc1cc2c(cc1C)[n+]([O-])c(NC1CCC1)n[n+]2[O-] [SRI-012459] | 34.9 | –
3 | CC1CC(Nc2n[n+]([O-])c3ccccc3[n+]2[O-])CC(C)(C)C1 (stereo not shown) [SRI-012270] | 4.2 | –
4 | COc1ccc2c(c1)[n+]([O-])nc(N[C@@H]1C[C@H]3CC[C@@H]1C3)[n+]2[O-] [Compound 15dm, 3-((1R,2R,4S)-bicyclo[2.2.1]heptan-2-ylamino)-7-methoxybenzo[e][1,2,4]triazine 1,4-dioxide] | – | >80
5 | [O-][n+]1nc(NC2CCC2)[n+]([O-])c2ccc(F)cc21 [SRI-012276] | 8.0 | –
6 | [O-][n+]1nc(NC2CCCCCC2)[n+]([O-])c2ccccc21 [Compound 8g, 3-(cycloheptylamino)benzo[e][1,2,4]triazine 1,4-dioxide] | – | 3.2
7 | CCNc1n[n+]([O-])c2cc3c(cc2[n+]1[O-])CCC3 [Compound 15fa, 3-(ethylamino)-7,8-dihydro-6H-indeno[5,6-e][1,2,4]triazine 1,4-dioxide] | – | 29
8 | [O-][n+]1nc(NC2[C@H]3C[C@@H]4C[C@@H](C[C@H]2C4)C3)[n+]([O-])c2ccccc21 (stereo partly shown) [SRI-012269] | 2.9 | –
9 | CCC(COC)Nc1n[n+]([O-])c2cc(F)ccc2[n+]1[O-] (stereo not shown) [SRI-012278] | 1.3 | –
10 | CCC(COC)Nc1n[n+]([O-])c2ccccc2[n+]1[O-] (stereo not shown) [Compound 8i, 3-((1-methoxybutan-2-yl)amino)benzo[e][1,2,4]triazine 1,4-dioxide] | – | >5.0
11 | CCC(C)Nc1n[n+]([O-])c2ccccc2[n+]1[O-] (stereo not shown) [SRI-012262] | 8.6 | –
12 | CC(C)(C)C1CCC(Nc2n[n+]([O-])c3ccccc3[n+]2[O-])CC1 (stereo not shown) [Compound 8j, 3-((4-(tert-butyl)cyclohexyl)amino)benzo[e][1,2,4]triazine 1,4-dioxide] | – | 3.7
13 | CO[C@H]1/C=C/O[C@@]2(C)Oc3c(C)c(O)c4c(O)c(c(/C=N/N5CCN(C)CC5)c(O)c4c3C2=O)NC(=O)/C(C)=C\C=C\[C@H](C)[C@H](O)[C@@H](C)[C@@H](O)[C@@H](C)[C@H](OC(C)=O)[C@@H]1C [RIF, Rifampin, reference compound] | – | >15000
14 | [O-][n+]1nc(NC2CCCCC2)[n+]([O-])c2ccc(Cl)cc21 [SRI-012303] | 4.2 | –
15 | Cc1cccc2c1[n+]([O-])c(NC1CCC1)n[n+]2[O-] [Compound 15ed, 3-(cyclobutylamino)-5-methylbenzo[e][1,2,4]triazine 1,4-dioxide] | – | 70
16 | CC(C)CC(C)Nc1n[n+]([O-])c2ccccc2[n+]1[O-] (stereo not shown) [SRI-012263] | 4.7 | –
17 | COc1cc2c(cc1C)[n+]([O-])nc(NC1CCC1)[n+]2[O-] [SRI-012469] | 20.0 | –
18 | [O-][n+]1nc(NC2CC2)[n+]([O-])c2ccc(F)cc21 [Compound 15ab, 3-(cyclopropylamino)-7-fluorobenzo[e][1,2,4]triazine 1,4-dioxide] | – | 2.2
19 | [O-][n+]1nc(N[C@@H]2C[C@H]3CC[C@@H]2C3)[n+]([O-])c2ccccc21 (racemic) [SRI-012264] | 5.5 | –
20 | [O-][n+]1nc(N2CCOCC2)[n+]([O-])c2ccccc21 [Compound 17p, 3-morpholinobenzo[e][1,2,4]triazine 1,4-dioxide] | – | 2.2
21 | [O-][n+]1nc(NC2CCCCC2)[n+]([O-])c2ccc(F)cc21 [SRI-012275] | <4 | –
22 | COc1ccc2c(c1)[n+]([O-])nc(NC1CCC1)[n+]2[O-] [SRI-012463] | 15.8 | –

Row | SMILES | SI | SI (CC50/MIC)
23 | [O-][n+]1nc(NC2CCCCC2)[n+]([O-])c2ccccc21 [SRI-012266] | 3.6 | –
24 | [O-][n+]1nc(NC2CC2)[n+]([O-])c2ccc(Cl)cc21 [SRI-012301] | 2.2 | –
25 | CCC(COC)Nc1n[n+]([O-])c2cc(Cl)ccc2[n+]1[O-] (stereo not shown) [Compound 15bi, 7-chloro-3-((1-methoxybutan-2-yl)amino)benzo[e][1,2,4]triazine 1,4-dioxide] | – | 2.1
26 | CCC(CC)Nc1n[n+]([O-])c2ccccc2[n+]1[O-] [SRI-012271] | 7.3 | –
27 | Cc1cccc2c1[n+]([O-])c(NC1CCCC1)n[n+]2[O-] [Compound 15ee, 3-(cyclopentylamino)-5-methylbenzo[e][1,2,4]triazine 1,4-dioxide] | – | 12
28 | O=C1CN(/N=C/c2ccc([N+](=O)[O-])o2)C(=O)N1 [Nitrofurantoin, reference compound] | – | 1.1
29 | CS(=O)(=O)N1CCN(c2n[n+]([O-])c3cc4c(cc3[n+]2[O-])CCC4)CC1 [Compound 20x, 3-(4-(methylsulfonyl)piperazin-1-yl)-7,8-dihydro-6H-indeno[5,6-e][1,2,4]triazine 1,4-dioxide] | – | >10
30 | [O-][n+]1nc(NC2CCCC2)[n+]([O-])c2ccc(F)cc21 [Compound 15ae, 3-(cyclopentylamino)-7-fluorobenzo[e][1,2,4]triazine 1,4-dioxide] | – | 7.3
31 | [O-][n+]1nc(NC2CCCC2)[n+]([O-])c2ccccc21 [Compound 8e, 3-(cyclopentylamino)benzo[e][1,2,4]triazine 1,4-dioxide] | – | 4.2
32 | CC(C)C(C)Nc1n[n+]([O-])c2ccccc2[n+]1[O-] (stereo not shown) [SRI-012267] | 4.2 | –
33 | [O-][n+]1nc(NC2CCC2)[n+]([O-])c2ccccc21 [SRI-012260] | 7.1 | –
34 | [O-][n+]1nc(NC2CCCCC2)[n+]([O-])c2ccccc21 [Compound 8f, 3-(cyclohexylamino)benzo[e][1,2,4]triazine 1,4-dioxide] | – | 3.6
35 | [O-][n+]1nc(N[C@@H]2C[C@H]3CC[C@@H]2C3)[n+]([O-])c2ccc(Br)cc21 [Compound 15cm, 3-((1R,2R,4S)-bicyclo[2.2.1]heptan-2-ylamino)-7-bromobenzo[e][1,2,4]triazine 1,4-dioxide] | – | 2.6
36 | [O-][n+]1nc(NC2CCCC2)[n+]([O-])c2ccc(Br)cc21 [Compound 15ce, 7-bromo-3-(cyclopentylamino)benzo[e][1,2,4]triazine 1,4-dioxide] | – | 110
37 | C[C@@H]1[C@H]2C[C@@H](C[C@H]1Nc1n[n+]([O-])c3ccccc3[n+]1[O-])C2(C)C (racemic) [SRI-012273] | 3.7 | –
38 | [O-][n+]1nc(NC2CCCCCC2)[n+]([O-])c2ccc(F)cc21 [SRI-012282] | <4 | –
39 | CCNc1n[n+]([O-])c2cccc(C)c2[n+]1[O-] [Compound 15ea, Ethyl-(5-methyl-1,4-dioxy-benzo[1,2,4]triazin-3-yl)-amine] | – | 36
40 | Nc1n[n+]([O-])c2ccccc2[n+]1[O-] [TPZ, tirapazamine, reference compound] | – | 1.6
41 | CCC(COC)Nc1n[n+]([O-])c2cc(F)ccc2[n+]1[O-] (stereo not shown) [Compound 15ai, 7-fluoro-3-((1-methoxybutan-2-yl)amino)benzo[e][1,2,4]triazine 1,4-dioxide] | – | 1.3
42 | [O-][n+]1nc(NC2CCCCCC2)[n+]([O-])c2ccccc21 [SRI-012256] | 3.2 | –
43 | CCNc1n[n+]([O-])c2cc3c(cc2[n+]1[O-])CCC3 [SRI-012286] | 28.8 | –

— patent US9663478B2, “Benzotriazine oxides as drugs targeting Mycobacterium tuberculosis” (priority 2011, dated 2017)
